## PSTVd loop 15 mutant pool in Nicotiana benthamiana

Reference: Wu et al. 2024, doi:10.1371/journal.ppat.1012142.

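Three N. benthamiana plants were inoculated with the whole mutant pool. Progeny were sequenced from the inoculated region (day 5), the margin of the inoculated leaf (day 10) and systemic leaves (day 12).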

Region: loop 15 of PSTVd (intermediate strain), upper and lower strand joined, each 5' to 3', the first 7 letters being the upper strand, closing pairs included. Wild type: GGAAACCGCUACUAC. Varied positions (N): GGAAACCGNNNNNNC.

Numbers give reads per thousand; 0 = not seen among the reads, higher = more abundant. Each value is the mean of three plants. "Pool" is the share in the plasmid pool used as inoculum, on the same scale. The inoculated region was read from the minus strand, the other sites from the plus strand. For reference, wild type rose from 33.9 per thousand in the pool to 202, 200, 159 (inoculated region), 724, 746, 710 (leaf margin) and 856, 883, 880 (systemic leaves).

GGAAACCGGAAGGGC (pool 0.208) read inoculated region 0.0463; leaf margin 0.00668; systemic leaves 0. With GGAAACCGGUCCCAC (pool 0.176) the assay gave inoculated region 0.114; leaf margin 0.0134; systemic leaves 0. GGAAACCGCACCCUC (pool 0.128) read inoculated region 0.0966; leaf margin 0; systemic leaves 0. GGAAACCGUAUCUCC (pool 0.128) read inoculated region 0.0487; leaf margin 0.00539; systemic leaves 0. GGAAACCGACUAGAC (pool 0.256) gave inoculated region 0.116; leaf margin 0; systemic leaves 0. GGAAACCGCUACGAC (pool 5.23) gave inoculated region 3.23; leaf margin 4.31; systemic leaves 2.75. GGAAACCGAGUCGUC (pool 0.208) gave inoculated region 0.108; leaf margin 0.00742; systemic leaves 0. GGAAACCGUGAUUGC (pool 0.288) read inoculated region 0.347; leaf margin 0.140; systemic leaves 0.0512.

For GGAAACCGCGGUCUC (pool 0.224) the result was inoculated region 0.526; leaf margin 0.0134; systemic leaves 0.00504. GGAAACCGUACGUAC (pool 0.240) gave inoculated region 0.375; leaf margin 0.120; systemic leaves 0.0484. For GGAAACCGAAAGAAC (pool 0.224) the result was inoculated region 0.258; leaf margin 0.146; systemic leaves 0.0461. For GGAAACCGGUUUGUC (pool 0.176) the result was inoculated region 0.106; leaf margin 0; systemic leaves 0.00537. With GGAAACCGAUUCUGC (pool 0.176) the assay gave inoculated region 0.0794; leaf margin 0.0108; systemic leaves 0. For GGAAACCGAUCAUCC (pool 0.336) the result was inoculated region 0.230; leaf margin 0.0195; systemic leaves 0.0107. With GGAAACCGAUCGUUC (pool 0.288) the assay gave inoculated region 0.595; leaf margin 0.145; systemic leaves 0.0635. GGAAACCGCCAAGAC (pool 0.368) read inoculated region 0.284; leaf margin 0.136; systemic leaves 0.0161.

For GGAAACCGUUAUCAC (pool 0.272) the result was inoculated region 0.337; leaf margin 0.0986; systemic leaves 0.0631. With GGAAACCGAGAUGGC (pool 0.224) the assay gave inoculated region 0.100; leaf margin 0.00668; systemic leaves 0. GGAAACCGACAGUGC (pool 0.272) read inoculated region 0.366; leaf margin 0.0652; systemic leaves 0.0594. For GGAAACCGCGAAAGC (pool 0.208) the result was inoculated region 0.110; leaf margin 0.0148; systemic leaves 0. GGAAACCGUCCCACC (pool 0.256) gave inoculated region 0.120; leaf margin 0.00539; systemic leaves 0. GGAAACCGUUUAUUC (pool 0.208) read inoculated region 0.460; leaf margin 0.123; systemic leaves 0.0161. GGAAACCGGAGGGCC (pool 0.144) read inoculated region 0.0908; leaf margin 0; systemic leaves 0. For GGAAACCGUUGACUC (pool 0.224) the result was inoculated region 0.0877; leaf margin 0; systemic leaves 0.

For GGAAACCGGGCUAGC (pool 0.224) the result was inoculated region 0.0847; leaf margin 0.0187; systemic leaves 0. For GGAAACCGUGGAAGC (pool 0.192) the result was inoculated region 0.103; leaf margin 0.00742; systemic leaves 0. GGAAACCGAUAGCUC (pool 0.272) gave inoculated region 0.332; leaf margin 0.164; systemic leaves 0.0107. For GGAAACCGAUGAUAC (pool 0.144) the result was inoculated region 0.329; leaf margin 0.121; systemic leaves 0.0161. GGAAACCGCGCUAAC (pool 0.240) read inoculated region 0.0893; leaf margin 0; systemic leaves 0. With GGAAACCGCAAUCGC (pool 0.144) the assay gave inoculated region 0.0750; leaf margin 0; systemic leaves 0. GGAAACCGAACCGAC (pool 0.192) gave inoculated region 0.0839; leaf margin 0; systemic leaves 0. GGAAACCGAACACUC (pool 0.160) gave inoculated region 0.0740; leaf margin 0.0121; systemic leaves 0.

GGAAACCGUCGCCCC (pool 0.320) read inoculated region 0.0866; leaf margin 0.0262; systemic leaves 0. GGAAACCGUGACUGC (pool 0.336) read inoculated region 0.303; leaf margin 0.0906; systemic leaves 0.0765. GGAAACCGGAAUGAC (pool 0.224) read inoculated region 0.132; leaf margin 0.00539; systemic leaves 0.00537. With GGAAACCGUCAAGUC (pool 0.240) the assay gave inoculated region 0.0808; leaf margin 0.0175; systemic leaves 0.00537.

The last 3 entries again:

{"sequence": "GGAAACCGUGACUGC", "pool": "0.336", "inoculated region": 0.303, "leaf margin": 0.0906, "systemic leaves": 0.0765}
{"sequence": "GGAAACCGGAAUGAC", "pool": "0.224", "inoculated region": 0.132, "leaf margin": 0.00539, "systemic leaves": 0.00537}
{"sequence": "GGAAACCGUCAAGUC", "pool": "0.240", "inoculated region": 0.0808, "leaf margin": 0.0175, "systemic leaves": 0.00537}

Sequences that differ at fixed positions probably stem from PCR or sequencing errors, and defective variants can be carried along by functional ones. Samples held 43,870 to 66,106 reads, so the smallest values rest on one or two reads.